Measured values from several laboratories, pooled; numbers as filed in NIAID ChemDB.

Shared fields: cytotoxicity tests; cells: MT-4; endpoint: CC50

Lines come from different laboratories, so protocols vary. CCn: concentration that lowers growth or viability of the cells by n%.

SMILES,value
COc1cc(C)nc(N2C(=O)CSC2c2c(Cl)cccc2Cl)n1,52.5 µM
CC(=O)Oc1ccc2ccccc2c1Cc1c[nH]c2ccccc12,30 µM
CC(C)[C@@H](C)/C=C/[C@@H](C)[C@H]1CC[C@H]2C3=CC=C4C[C@@H](O)CC[C@]4(C)[C@H]3CC[C@]12C,1000 µM
O=c1[nH]cnc2c1ncn2[C@H]1CC[C@@H](CO)O1,>100 µM
C[C@H](CCC=C(CO)CO)[C@H]1CC[C@@]2(C)C3=CC[C@H]4C(C)(C)C(=O)CC[C@]4(C)C3=CC[C@]12C,>15.6 µM
O=C1CSC(c2c(Cl)cccc2Cl)N1c1ncccn1,173 µM
CO[C@@H]1C=C2C3CC[C@H]([C@H](C)/C=C/C(C)C(C)C)[C@@]3(C)CCC2[C@@]2(C)CC[C@H](O)C[C@]12O,31.3 µM
C1CNCCNCC(C2CNCCNCCCNCCNC2)CNCCNC1,54 µg/mL
OC[C@@H]1SC[C@@H](n2cnc3c(Cl)ncnc32)S1,10 µg/mL
COc1ccc2c(Cc3c[nH]c4ccc(Br)cc34)c(OC(C)=O)ccc2c1,19 µM
CCOC(=O)C1Nc2ccccc2Sn2cccc21,10 µM
C[C@]1(CO)O[C@@H](n2cnc3cncnc32)C[C@@H]1O,50 µM
COCOc1ccc(/C=C/C(=O)c2c(O)cc(OCOC)cc2OCOC)c(OCOC)c1,19 µg/mL
C/C=C/CN1C(=O)c2cccn2S(=O)(=O)c2ccc(Cl)cc21,300 µM
CC(C)=CCN1Cc2c(Br)ccc3[nH]c(=S)n(c23)C[C@@H]1C,25.4 µg/mL
CC(C)[C@H](NC(=O)NCc1ccccn1)C(=O)N[C@@H](Cc1ccccc1)C(=O)C(F)(F)CCc1ccccc1,>100 µM
Nc1nc(=O)n([C@@H]2CS[C@@H](CO)S2)cc1F,>100 µg/mL
C1CNCCNCCCN[C@@H]([C@H]2CNCCCNCCNCCCN2)CNC1,172 µg/mL
Nc1nc2c(ncn2[C@H]2CS[C@@H](CO)S2)c(=O)[nH]1,>100 µg/mL
CC(C)CN(C[C@@H](O)[C@H](Cc1ccccc1)NC(=O)O[C@H]1CO[C@H]2OCC[C@H]21)S(=O)(=O)c1ccc(C(N)=O)cc1,>100 µM
O=C1c2cccn2S(=O)(=O)c2ccccc2N1C1CC1,>300 µM
Cc1ccnc(N2C(=O)CSC2c2c(F)cccc2Cl)n1,134 µM
COc1ccc2c(Cc3c[nH]c4ccccc34)c(OC(C)=O)ccc2c1,18 µM
C=CC(C)(C)c1cc([C@@H]2COc3c(ccc4c3C=CC(C)(C)O4)C2)c(O)cc1O,9 µg/mL
CCCN1C(=O)c2cccn2S(=O)(=O)c2ccccc21,136 µM
COc1ccc(C2CC(=O)c3c(cc(O)c(CC=C(C)C)c3O)O2)c(CC=C(C)C)c1O,>100 µg/mL
CC(C)=CCN1C(C)C(=O)N(C(C)C)c2ccc(Cl)cc2S1(=O)=O,56 µM
Cc1cn([C@H]2C[C@H](N=[N+]=[N-])[C@@H](COP(=O)(O)C(=O)O)O2)c(=O)[nH]c1=O,161 µM
CC(C)=CCN1C(C)C(=O)Nc2ccc(Cl)cc2S1(=O)=O,>200 µM
Nc1ccn([C@H]2CS[C@@H](CO)S2)c(=O)n1,>100 µg/mL
CC(C)=CCN1C(=O)c2cccn2-c2ccc(Cl)cc2S1(=O)=O,10 µM
CCC(=O)Oc1ccc2c(C)cc(=O)oc2c1Cc1c(-c2ccccc2)[nH]c2ccccc12,38 µM
CC(C)=CCN1Cc2cc(F)cc3[nH]c(=S)n(c23)C[C@@H]1C,24.7 µg/mL
Cc1ccnc(N2C(=O)CSC2c2c(F)cccc2F)n1,>406.7 µM
CC(C)N1C(=O)c2cccn2-c2ccc(Cl)cc2S1(=O)=O,29 µM
Cc1cc(Cl)nc(N2C(=O)CSC2c2c(F)cccc2Cl)n1,0.893 µM
Cc1cn([C@H]2C[C@H](F)[C@@H](CO)O2)c(=O)[nH]c1=S,480 µM
CC(C)[C@@H](C)/C=C/[C@@H](C)[C@H]1CCC2[C@@]34C=C[C@]5(C[C@@H](O)CC[C@]5(C)C3CC[C@@]21C)OO4,15.6 µM
CC(C)=CCN1Cc2cc(Cl)cc3[nH]c(=S)n(c23)C[C@@H]1C,10 µg/mL
O=C1c2cccn2-c2ccc(Cl)cc2S(=O)(=O)N1C/C=C/c1ccccc1,>200 µM
Nc1nc(Cl)c2ncn([C@H]3CS[C@@H](CO)S3)c2n1,>100 µg/mL
O=S1(=O)NC(c2c(Cl)cccc2Cl)c2cccn2-c2ccc(Cl)cc21,>200 µM
C[C@H]1Cn2c(=O)[nH]c3cc(Cl)cc(c32)CN1CCC1CC1,>250 µg/mL
Cc1cc(=O)[nH]c(N2C(=O)CSC2c2c(F)cccc2F)n1,6.55 µM
O=S1(=O)c2ccccc2NCc2cccn21,129 µM
Nc1ccn([C@@H]2CS[C@@H](CO)S2)c(=O)n1,>100 µg/mL
CC(C)=CCN1C(=O)Nc2ccc(Cl)cc2S1(=O)=O,133 µM
Cc1cn([C@H]2C=C[C@@H](CO)O2)c(=O)[nH]c1=O,~25 µg/mL
Oc1cc(O)cc(-c2cc3ccc(O)cc3o2)c1,54 µg/mL
COc1ccc2ccc(OC(C)=O)c(Cc3c[nH]c4ccc(Br)cc34)c2c1,30 µM

Repeating the first 6 entries:

SMILES	value
COc1cc(C)nc(N2C(=O)CSC2c2c(Cl)cccc2Cl)n1	52.5 µM
CC(=O)Oc1ccc2ccccc2c1Cc1c[nH]c2ccccc12	30 µM
CC(C)[C@@H](C)/C=C/[C@@H](C)[C@H]1CC[C@H]2C3=CC=C4C[C@@H](O)CC[C@]4(C)[C@H]3CC[C@]12C	1000 µM
O=c1[nH]cnc2c1ncn2[C@H]1CC[C@@H](CO)O1	>100 µM
C[C@H](CCC=C(CO)CO)[C@H]1CC[C@@]2(C)C3=CC[C@H]4C(C)(C)C(=O)CC[C@]4(C)C3=CC[C@]12C	>15.6 µM
O=C1CSC(c2c(Cl)cccc2Cl)N1c1ncccn1	173 µM